Anti-infective test results gathered from many reports (values: NIAID ChemDB through PubChem).

All rows: whole-cell or culture tests; organism: Mycobacterium avium

ECn is the concentration giving n% inhibition of infection, replication or growth. Rows are shuffled and stem from different studies. An empty or dashed field is not shown. MIC50, MIC90 and the like: level of inhibition, or share of isolates inhibited.

SMILES	endpoint	conditions	read by	strain or isolate	changes	value
CCc1cc(C(N)=S)ccn1	MIC			3337-4		5 µg/mL
CCCCOc1ccc(NC(=O)OCCN2CCCCC2)cc1	MIC			MY330/88		125 µM
O=[N+]([O-])c1ccc(CSc2ncn[nH]2)c([N+](=O)[O-])c1	MIC			MY330/88		500 µM
Cc1ccc2nc(SCc3cccc(Br)c3)[nH]c2c1	MIC			MY330/88		32 µM
Clc1cccc(CSc2ncn[nH]2)c1	MIC			MY330/88		250 µM
O=c1oc2ccccc2c(=O)n1-c1ccc(C(F)(F)F)cc1	MIC			CNCTC MY330/88		16 µM
O=C(NNC(=O)c1ccncc1)Nc1c(Cl)cc(Cl)cc1Cl	MIC100	14 d	broth dilution	MY330/88		>125 µM
Cc1ccc2nc(SCc3cccc(Cl)c3)[nH]c2c1	MIC			MY330/88		32 µM
CCOc1cccc(NC(=O)OCC[NH+]2CCCC2)c1	MIC			MY330/88		1000 µM
CC(C)N=c1cc2n(-c3ccc(Cl)cc3)c3ccccc3nc-2cc1Nc1ccc(Cl)cc1	MIC			6194		2 µg/mL
O=c1oc2ccccc2c(=O)n1-c1ccc(Cl)c(Cl)c1	MIC			CNCTC MY330/88		16 µM
Cc1ccc(-n2c(=S)oc3ccc(C)cc3c2=S)cc1	MIC	21 d		MY330/88		2 µM
CCCCCOc1ccccc1NC(=O)OC(COCC)CN1CCCCC1	MIC			MY330/88		250 µM
Cc1ccc2oc(=S)n(-c3cccc(Cl)c3)c(=S)c2c1	MIC	14 d		MY330/88		2 µM
Cc1ccc(CSc2nc3ccc(C)cc3[nH]2)cc1	MIC			MY330/88		>32 µM
Cc1ccc2oc(=O)n(-c3ccc(Cl)cc3)c(=S)c2c1	MIC	14 d		MY330/88		2 µM
Cc1ccn2c(C(=O)NCc3ccc(N4CCN(c5ccc(C(F)(F)F)cn5)CC4)c(F)c3)c(C)nc2c1	MIC		resazurin	A5		>1 µg/mL
Cn1cnnc1SCc1ccccc1	MIC			MY330/88		>1000 µM
O=c1oc2ccc(F)cc2c(=S)n1-c1ccc(Cl)c(Cl)c1	MIC	14 d		MY330/88		8 µM
Fc1cc(Br)ccc1Nc1nnc(-c2ccncc2)o1	MIC100	21 d	broth dilution	MY330/88		>125 µM
O=c1oc2ccc(Br)cc2c(=S)n1-c1cccc(Cl)c1	MIC	14 d		MY330/88		16 µM
COc1ccc2oc(=O)n(-c3ccc(Cl)cc3)c(=O)c2c1	MIC			CNCTC MY330/88		125 µM
O=c1oc2ccc(Br)cc2c(=S)n1-c1ccc(Cl)cc1	MIC	21 d		MY330/88		32 µM
Cc1ccn2c(C(=O)NCc3ccc(N4CCSCC4)c(F)c3)c(C)nc2c1	MIC		resazurin	101		<2 µM
COc1ccc2c(=O)n(-c3ccc(C#N)cc3)c(=O)oc2c1	MIC			CNCTC MY330/88		62.5 µM
O=c1[nH]c(=O)n([C@H]2C[C@H](O)[C@@H](CO)O2)cc1O	EC50			ATCC 25291		>50 µg/mL
CCCCCCOc1ccc(NC(=O)OCCN2CCOCC2)cc1	MIC			MY330/88		32 µM
CC(C)(C)n1cc(C(=O)O)c(=O)c2cc(F)c(N3CCNCC3)nc21	MIC			RG2		2 µg/mL
Cc1cn([C@H]2C[C@H](N=[N+]=[N-])[C@@H](CO)O2)c(=O)[nH]c1=O	EC50			ATCC 25291		>50 µg/mL
O=c1oc2ccc(F)cc2c(=S)n1-c1ccc(F)cc1	MIC	21 d		MY330/88		16 µM
Cc1ccc2nc(SCc3ccc(C(F)(F)F)cc3)[nH]c2c1	MIC			MY330/88		62 µM
CCOc1c(N2CCC(C(C)(C)N)C2)c(F)cc2c(=O)c(C(=O)O)cn(C3CC3)c12	MIC			LR114F		0.25 µg/mL
CCCCCCCCCOc1ccc(NC(=O)OCC[NH+]2CCCC2)cc1	MIC			MY330/88		16 µM
CCCCCOc1cccc(NC(=O)OC(COCC)CN2CCCCC2)c1	MIC			MY330/88		32 µM
CC(=O)O[C@H]1C[C@H](n2cc(C(F)CCl)c(=O)[nH]c2=O)O[C@@H]1CO	EC50			ATCC 25291		<5 µg/mL
Cc1ccc(NC(=O)NNC(=O)c2ccncc2)cc1	MIC100	14 d	broth dilution	MY330/88		16 µM
Cc1cn2c(C(=O)NCc3ccc(N4CCN(c5ccc(C(F)(F)F)cn5)CC4)c(F)c3)c(C)nc2s1	MIC		resazurin	104	Gentamicin-resistant	0.3125 µg/mL
c1ccc(CSc2ncn[nH]2)cc1	MIC			MY330/88		1000 µM
Clc1ccc(Nc2nnc(-c3ccncc3)o2)cc1Cl	MIC100	14 d	broth dilution	MY330/88		>125 µM
CCc1nc2ccc(Cl)cn2c1C(=O)NCc1ccc(N2CCC(c3ccc(OC(F)(F)F)cc3)CC2)cc1	MIC		resazurin	2151		<2 µM
Cc1cccc(C(N)=Nc2nc(-c3ccccn3)cc3ccccc23)c1	MIC			SK-32		4 µg/mL
O=c1ccn([C@H]2C[C@H](F)[C@@H](CO)O2)c(=O)[nH]1	EC50			ATCC 25291		>50 µg/mL
CCCCCCCCCOc1cccc(NC(=O)OCCN2CCOCC2)c1	MIC			MY330/88		62.5 µM
Fc1ccc2oc(=S)n(-c3ccccc3)c(=S)c2c1	MIC	14 d		MY330/88		8 µM
CCCCCCCOc1ccccc1NC(=O)OCCN1CCCCC1	MIC			MY330/88		32 µM
Fc1ccc(CSc2ncn[nH]2)cc1	MIC			MY330/88		500 µM
CCOc1cccc(NC(=O)OCCN2CCOCC2)c1	MIC			MY330/88		>1000 µM
O=C(NNC(=O)c1ccncc1)Nc1ccc(Br)cc1Br	MIC100	14 d	broth dilution	MY330/88		>125 µM
Cc1ccc2nc(C)c(C(=O)NCc3ccc(C(F)(F)F)cc3)n2c1	MIC		resazurin	A5		>1 µg/mL
CCCCCCOc1ccccc1NC(=O)OCCN1CCOCC1	MIC			MY330/88		62.5 µM

7 of the rows above, restated:

| SMILES | endpoint | conditions | read by | strain or isolate | changes | value |
|---|---|---|---|---|---|---|
| Cn1cnnc1SCc1ccccc1 | MIC |  |  | MY330/88 |  | >1000 µM |
| CCCCCCOc1ccccc1NC(=O)OCCN1CCOCC1 | MIC |  |  | MY330/88 |  | 62.5 µM |
| Cc1ccn2c(C(=O)NCc3ccc(N4CCSCC4)c(F)c3)c(C)nc2c1 | MIC |  | resazurin | 101 |  | <2 µM |
| CCc1nc2ccc(Cl)cn2c1C(=O)NCc1ccc(N2CCC(c3ccc(OC(F)(F)F)cc3)CC2)cc1 | MIC |  | resazurin | 2151 |  | <2 µM |
| O=C(NNC(=O)c1ccncc1)Nc1ccc(Br)cc1Br | MIC100 | 14 d | broth dilution | MY330/88 |  | >125 µM |
| Cc1ccc(CSc2nc3ccc(C)cc3[nH]2)cc1 | MIC |  |  | MY330/88 |  | >32 µM |
| CCCCCCCOc1ccccc1NC(=O)OCCN1CCCCC1 | MIC |  |  | MY330/88 |  | 32 µM |